We go through two sequences from patent US11246922B1 (Elidan America, LLC., priority 2021, dated 2022).

Where a sequence shows no end group, the ends are not given.

A short description of the series: peptide made by a vendor (peptide synthesis; ChemMatrix Rink Amide resin; 2-chlorotrityl chloride resin; DIC/Cl-HOBt). The following applies: whole synthesis.

Turning to CVNDTFAGSTFISDEVDGVDEVAKKKSK, the “final purity (method not given)” value by setting is: (run 1) 98.25%; (run 2) greater than 98%.

For CVNDTFAGSTFISDEVD, the “final purity (method not given)” value reads like this: (run 1) 98.76%; (run 2) greater than 98%.
